## Vif LAI: effect of single changes on growth against APOBEC3G

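A pool of vif mutants was passaged twice, 72 h each, on SupT1 cells that express APOBEC3G. Each of three replicates was sequenced after round two and set against the merged round-one pool. Changes do not touch integrase, since the pol overlap was removed.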

Protein: Vif of HIV-1 LAI (a laboratory-adapted subtype B strain). Residues 12-115 were scanned and are shown below; the first letter is residue 12.
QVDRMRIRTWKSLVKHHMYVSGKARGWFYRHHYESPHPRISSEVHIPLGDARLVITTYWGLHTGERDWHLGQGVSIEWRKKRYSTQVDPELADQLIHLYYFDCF

The score is log2 enrichment against the wild-type codon: higher is better tolerated, lower is depleted. Substitutions are written as wild-type residue, site number, new residue. The median of three replicates is given, with the replicates in brackets. Input reads are the counts in the merged round-one pool, before selection. The scan is noisy: the rank correlation of replicates is about 0.4 to 0.65, and variants with under about 50 input reads tend to read too high.

{"substitution": "G82A", "input reads": "807", "median log2 enrichment": "-0.82 (-1.03 / 0.61 / -0.82)"}
{"substitution": "G82D", "input reads": "414", "median log2 enrichment": "-1.40 (-1.40 / -2.28 / -0.63)"}
{"substitution": "G82H", "input reads": "33", "median log2 enrichment": "-0.56 (-0.83 / 4.91 / -0.56)"}
{"substitution": "G82K", "input reads": "385", "median log2 enrichment": "-4.26 (-4.36 / -4.26 / -3.24)"}
{"substitution": "G82L", "input reads": "33", "median log2 enrichment": "-0.98 (-0.83 / -0.98 / -1.30)"}
{"substitution": "G82N", "input reads": "994", "median log2 enrichment": "-2.67 (-2.67 / -4.04 / -2.65)"}
{"substitution": "G82Q", "input reads": "441", "median log2 enrichment": "-2.44 (-2.44 / -3.30 / 1.93)"}
{"substitution": "G82R", "input reads": "54", "median log2 enrichment": "0.32 (-1.54 / 4.53 / 0.32)"}
{"substitution": "G82S", "input reads": "405", "median log2 enrichment": "-2.40 (-2.32 / -3.79 / -2.40)"}
{"substitution": "G82Y", "input reads": "70", "median log2 enrichment": "0.80 (5.58 / -0.87 / 0.80)"}
{"substitution": "Q83E", "input reads": "826", "median log2 enrichment": "-1.36 (-1.36 / -2.14 / -0.58)"}
{"substitution": "Q83F", "input reads": "48", "median log2 enrichment": "2.78 (2.78 / 4.31 / 0.70)"}
{"substitution": "Q83H", "input reads": "159", "median log2 enrichment": "-0.41 (-0.41 / -0.58 / 1.50)"}
{"substitution": "Q83K", "input reads": "451", "median log2 enrichment": "0.76 (-0.23 / 0.76 / 1.83)"}
{"substitution": "Q83L", "input reads": "138", "median log2 enrichment": "-0.21 (-0.21 / -0.81 / 0.23)"}
{"substitution": "Q83N", "input reads": "247", "median log2 enrichment": "-2.13 (-2.13 / -1.76 / -2.93)"}
{"substitution": "Q83R", "input reads": "669", "median log2 enrichment": "1.08 (2.04 / 1.08 / -2.31)"}
{"substitution": "Q83T", "input reads": "644", "median log2 enrichment": "-3.22 (-3.22 / -5.89 / -2.59)"}
{"substitution": "Q83Y", "input reads": "328", "median log2 enrichment": "-1.50 (-1.18 / -3.08 / -1.50)"}
{"substitution": "G84C", "input reads": "21", "median log2 enrichment": "1.20 (0.56 / 5.47 / 1.20)"}
{"substitution": "G84D", "input reads": "150", "median log2 enrichment": "-1.60 (-0.87 / -3.14 / -1.60)"}
{"substitution": "G84E", "input reads": "370", "median log2 enrichment": "-1.23 (3.49 / -3.25 / -1.23)"}
{"substitution": "G84F", "input reads": "907", "median log2 enrichment": "0.67 (1.61 / 0.30 / 0.67)"}
{"substitution": "G84H", "input reads": "343", "median log2 enrichment": "-0.55 (-0.55 / 1.80 / -2.79)"}
{"substitution": "G84I", "input reads": "21", "median log2 enrichment": "-0.17 (-0.17 / -1.47 / 1.20)"}
{"substitution": "G84K", "input reads": "402", "median log2 enrichment": "-1.90 (-1.90 / -3.77 / -0.37)"}
{"substitution": "G84N", "input reads": "741", "median log2 enrichment": "-2.48 (-2.48 / 0.58 / -2.97)"}
{"substitution": "G84P", "input reads": "1590", "median log2 enrichment": "-1.89 (0.41 / -3.18 / -1.89)"}
{"substitution": "G84R", "input reads": "713", "median log2 enrichment": "-0.70 (1.29 / -0.70 / -1.75)"}
{"substitution": "G84S", "input reads": "734", "median log2 enrichment": "-2.06 (-2.33 / -0.16 / -2.06)"}
{"substitution": "G84T", "input reads": "25", "median log2 enrichment": "0.80 (0.80 / 5.74 / -0.18)"}
{"substitution": "G84Y", "input reads": "22", "median log2 enrichment": "0.50 (0.50 / 5.29 / -2.32)"}
{"substitution": "V85A", "input reads": "392", "median log2 enrichment": "-2.58 (-2.26 / -2.58 / -3.00)"}
{"substitution": "V85C", "input reads": "417", "median log2 enrichment": "-1.66 (-1.66 / -2.88 / -1.50)"}
{"substitution": "V85D", "input reads": "384", "median log2 enrichment": "-4.10 (-1.29 / -4.80 / -4.10)"}
{"substitution": "V85F", "input reads": "2512", "median log2 enrichment": "-2.04 (-2.04 / -0.86 / -2.34)"}
{"substitution": "V85G", "input reads": "402", "median log2 enrichment": "-1.14 (-1.14 / 1.90 / -3.03)"}
{"substitution": "V85I", "input reads": "72", "median log2 enrichment": "0.17 (0.17 / 1.23 / -2.43)"}
{"substitution": "V85K", "input reads": "122", "median log2 enrichment": "0.18 (5.34 / -1.37 / 0.18)"}
{"substitution": "V85L", "input reads": "940", "median log2 enrichment": "-2.98 (-2.98 / -5.18 / -2.59)"}
{"substitution": "V85N", "input reads": "429", "median log2 enrichment": "-3.78 (-2.39 / -4.43 / -3.78)"}
{"substitution": "V85Q", "input reads": "1022", "median log2 enrichment": "-1.30 (-1.00 / -3.08 / -1.30)"}
{"substitution": "V85R", "input reads": "377", "median log2 enrichment": "-1.19 (-0.78 / -2.74 / -1.19)"}
{"substitution": "V85S", "input reads": "791", "median log2 enrichment": "-3.38 (-2.73 / -4.62 / -3.38)"}
{"substitution": "V85T", "input reads": "771", "median log2 enrichment": "-2.22 (2.11 / -3.55 / -2.22)"}
{"substitution": "V85W", "input reads": "889", "median log2 enrichment": "-1.87 (-1.21 / -1.87 / -2.59)"}
{"substitution": "V85Y", "input reads": "24", "median log2 enrichment": "2.59 (0.36 / 4.56 / 2.59)"}
{"substitution": "S86A", "input reads": "40", "median log2 enrichment": "1.85 (1.85 / 4.19 / 1.64)"}
{"substitution": "S86C", "input reads": "205", "median log2 enrichment": "2.58 (3.48 / 2.58 / 0.16)"}
{"substitution": "S86D", "input reads": "995", "median log2 enrichment": "-2.08 (-2.08 / -3.48 / -1.95)"}
{"substitution": "S86E", "input reads": "24", "median log2 enrichment": "1.51 (1.51 / 5.91 / 1.07)"}
{"substitution": "S86F", "input reads": "527", "median log2 enrichment": "-1.12 (-2.13 / -1.12 / -0.84)"}
{"substitution": "S86H", "input reads": "96", "median log2 enrichment": "0.92 (5.62 / -1.86 / 0.92)"}
{"substitution": "S86I", "input reads": "540", "median log2 enrichment": "-2.95 (-2.95 / -0.18 / -4.05)"}
{"substitution": "S86K", "input reads": "176", "median log2 enrichment": "-1.99 (-1.99 / -0.08 / -2.07)"}
{"substitution": "S86L", "input reads": "315", "median log2 enrichment": "-1.94 (-1.94 / -3.41 / -0.95)"}
{"substitution": "S86P", "input reads": "199", "median log2 enrichment": "2.49 (2.49 / -0.56 / 6.28)"}
{"substitution": "S86Q", "input reads": "935", "median log2 enrichment": "-4.03 (-4.03 / -4.98 / -3.00)"}
{"substitution": "S86R", "input reads": "531", "median log2 enrichment": "-1.74 (-1.74 / 1.54 / -2.74)"}
{"substitution": "S86T", "input reads": "414", "median log2 enrichment": "-0.32 (-0.60 / 1.90 / -0.32)"}
{"substitution": "S86V", "input reads": "540", "median log2 enrichment": "0.27 (0.27 / 1.76 / -2.33)"}
{"substitution": "S86W", "input reads": "537", "median log2 enrichment": "-1.88 (-1.88 / -2.50 / -1.49)"}
{"substitution": "S86Y", "input reads": "712", "median log2 enrichment": "-1.39 (-1.39 / -1.62 / -1.14)"}

A selection of 8 entries from above:

substitution,input reads,median log2 enrichment
S86R,531,-1.74 (-1.74 / 1.54 / -2.74)
G84D,150,-1.60 (-0.87 / -3.14 / -1.60)
V85Y,24,2.59 (0.36 / 4.56 / 2.59)
S86D,995,-2.08 (-2.08 / -3.48 / -1.95)
G84N,741,-2.48 (-2.48 / 0.58 / -2.97)
G84T,25,0.80 (0.80 / 5.74 / -0.18)
V85L,940,-2.98 (-2.98 / -5.18 / -2.59)
G82Q,441,-2.44 (-2.44 / -3.30 / 1.93)

Some changes are missing from the data or left out. The authors note that some positive scores may be noise, and some enriched variants failed when tested singly.

From the data files of Langley et al. 2025, preprint, doi:10.1101/2025.10.20.683452.